{
  "source": "patent US10286057B2",
  "about": "“Cyclic HIV-1 Env V3 glycopeptide immunogens” (DUKE UNIVERSITY, priority 2013, dated 2019)",
  "key": {"PGT128": {"system": "PGT128", "experiment": "SPR binding to captured mAb PGT128", "details": "mAb captured on anti-Fc IgG surface, glycopeptide injected", "description": "(§1) Binding of V3 Bnab to V3-Man9 glycopeptide. […] Both PGT128 and PGT125 are dependent on Man9 glycans on position N332 and N301 (Pejchal et al., 2011), with N332 being the primary glycan. Mabs were captured on anti-Fc IgG immobilized sensor surfaces and the V3-Man9 glycopeptide injected to monitor binding responses on a BIAcore 300 instrument and as previously described (Alam et al., 2013).\n(§2) FIG. 13A-D show binding of PGT mAbs to synthetic Man9GlcNAc2 glycan. Binding of V3 Bnab to Man9 glycan. […] Thus, the binding of Man9GlcnAc2 glycan was detected only for V3-glycan dependent PGT BNAbs."}, "PGT125": {"system": "PGT125", "experiment": "SPR binding to captured mAb PGT125", "details": "mAb captured on anti-Fc IgG surface, glycopeptide injected", "description": "as §1, §2"}, "[1]": {"system": "V3 loop non-neutralizing mAb 19b", "experiment": "SPR binding to captured V3 loop non-neutralizing mAb 19b", "details": "FIG. 12 and FIG. 13D", "description": "as §1, §2"}, "anti-RSV mAb Synagis": {"system": "anti-RSV mAb Synagis", "experiment": "SPR binding to negative control mAb Synagis", "details": "FIG. 12", "description": "as §1"}, "[2]": {"details": "FIG. 12, listed as V3-Man9GlcNAc2 glycopeptide"}},
  "data": [
    {"substance": "V3-Man9 glycopeptide: peptide of SEQ ID NO: 8 glycosylated at Asn301 and Asn332 with Man9GlcNAc2, cyclic via endogenous cysteines (clade B JRFL mini-V3) (EINCTRPNNNTRPGEIIGDIRQAHCNISRA; Man9GlcNAc2 at N301, N332; disulfide cyclised)", "values": [
      {"measurement": "binding to PGT128", "setting": "PGT128; FIG. 12", "result": "preferential binding"},
      {"measurement": "binding to PGT128", "setting": "PGT128; [2]", "result": "specific binding"},
      {"measurement": "binding to PGT125", "setting": "PGT125; FIG. 12", "result": "preferential binding"},
      {"measurement": "binding to PGT125", "setting": "PGT125; [2]", "result": "specific binding"},
      {"measurement": "binding to non-neutralizing V3 mAb 19b", "setting": "[1]", "result": "No binding"},
      {"measurement": "binding to negative control mAb Synagis", "setting": "anti-RSV mAb Synagis", "result": "No binding"}
    ]}
  ]
}
